For 19 compounds, SI results are on record in patent publication US8779141B2, “Viral inhibitors” (Gilead Sciences, Inc., priority 2002, dated 2014).

Structures are written as SMILES.

The first data set relates to BVDV-1 (strain PE515). The data set is described as follows: Anti-BVDV assay, virus-induced cytopathic effect in MDBK cells (MTS). The data set is classed as cell-based, Bovine Viral Diarrhea Virus. To be noted: Table 9; SI: IC50/EC50 (MDBK growth / anti-BVDV). The protocol:
Madin-Darbey Bovine Kidney (MDBK) cells were maintained in Dulbecco's modified Eagle medium (DMEM) supplemented with BVDV-free 5% fetal calf serum (DMEME-FCS) at 37° C. in a humidified, 5% CO2 atmosphere. BVDV-1 (strain PE515) was used to assess the antiviral activity in MDBK cells. Vero cells were maintained in the same way as MDBK cells. Vero cells were infected with Coxsackie B3 virus (strain Nancy).
Ninety-six-well cell culture plates were seeded with MDBK cells in DMEM-FCS so that cells reached 24 hr later confluency. Then medium was removed and serial 5-fold dilutions of the test compounds were added in a total volume of 100 ul, after which the virus inoculum (100 ul) was added to each well. […] Uninfected cells and cells receiving virus without compound were included in each assay plate. After 5 days, medium was removed and 90 μl of DMEM-FCS and 10 ul of MTS/PMS solution (Promega) was added to each well. Following a 2 hr incubation period at 37° C. the optical density of the wells was read at 498 nm in a microplate reader.
In turn, `Fc1ccc(Cn2ccc3nc(-c4cc(F)ccc4F)nc-3c2)c(F)c1` [GPC-13, 2-(2,5-Difluorophenyl)-5-[(2,4-difluorophenyl)methyl]-5H-imidazo[4,5-c]pyridine] registered an SI of more than 1492.
Same read-out and setting: then `c1ccc(-c2nc3ccn(Cc4cccnc4)cc-3n2)cc1` [GPJN-35, 2-Phenyl-5-(3-pyridinylmethyl)-5H-imidazo[4,5-c]pyridine], with more than 273; and `Fc1cc(F)c(Cn2ccc3nc(-c4c(F)cccc4F)nc-3c2)c(F)c1` [GPJN-41, 2-(2,6-Difluorophenyl)-5-[(2,4,6-trifluorophenyl)methyl]-5H-imidazo[4,5-c]pyridine], with more than 172; and `N#Cc1ccc(Cn2ccc3nc(-c4ccccc4)nc-3c2)cc1` [GPJN-23, 4-[(2-Phenyl-5H-imidazo[4,5-c]pyridin-5-yl)methyl]-benzonitrile], with 3230.
For `Clc1cccc(Cn2ccc3nc(-c4ccccc4)nc-3c2)c1` [GPJN-8, 5-[(3-Chlorophenyl)methyl]-2-phenyl-5H-imidazo[4,5-c]pyridine], the SI is 592.
Compound `CCc1nc2ccn(Cc3ccc(Br)cc3)cc-2n1` [GPJN-48, 5-[(4-Bromophenyl)methyl]-2-ethyl-5H-imidazo[4,5-c]pyridine] gave an SI of more than 285.
Take `c1ccc(CCCn2ccc3nc(-c4ccccc4)nc-3c2)cc1` [GPJN-14, 2-Phenyl-5-(3-phenylpropyl)-5H-imidazo[4,5-c]pyridine]: the SI is given as 573.
As for `Clc1ccc(Cn2ccc3nc(-c4cccc(Br)c4)nc-3c2)cc1` [GPJN-80, 2-(3-Bromophenyl)-5-[(4-chlorophenyl)methyl]-5H-imidazo[4,5-c]pyridine], the SI is recorded as more than 555.
The same measure, in the same setting: next, `COc1ccc(Cn2ccc3nc(-c4ccccc4)nc-3c2)cc1` [GPJN-13, 5-[(4-Methoxyphenyl)methyl]-2-phenyl-5H-imidazo[4,5-c]pyridine]: 1058; `Fc1cccc(F)c1Cn1ccc2nc(-c3ccccc3)nc-2c1` [GPJN-3, 5-[(2,6-Difluorophenyl)methyl]-2-phenyl-5H-imidazo[4,5-c]pyridine]: 1003; `c1ccc(-c2nc3ccn(Cc4ccncc4)cc-3n2)cc1` [GPJN-31, 2-Phenyl-5-(4-pyridinylmethyl)-5H-imidazo[4,5-c]pyridine]: more than 222.
Compound `COc1cccc(Cn2ccc3nc(-c4ccccc4)nc-3c2)c1` [GPJN-12, 5-[(3-Methoxyphenyl)methyl]-2-phenyl-5H-imidazo[4,5-c]pyridine] showed an SI of 949.
As to `CC(c1ccccc1)n1ccc2nc(-c3ccccc3)nc-2c1` (stereo not shown) [GPJN-33, 2-Phenyl-5-(1-phenylethyl)-5H-imidazo[4,5-c]pyridine], the SI came to 350.
Turning to `Brc1cccc(-c2nc3ccn(Cc4ccc(I)cc4)cc-3n2)c1` [GPJN-79, 2-(3-Bromophenyl)-5-[(4-iodophenyl)methyl]-5H-imidazo[4,5-c]pyridine], the SI is recorded as more than 1204.
In turn, `c1ccc(-c2nc3ccn(CC4CCCCC4)cc-3n2)cc1` [GPJN-37, 5-(Cyclohexylmethyl)-2-phenyl-5H-imidazo[4,5-c]pyridine] registered an SI of 137.
Consider `Brc1ccc(Cn2ccc3nc(-c4cccc(Br)c4)nc-3c2)cc1` [GPJN-65, 2-(3-Bromophenyl)-5-[(4-bromophenyl)methyl]-5H-imidazo[4,5-c]pyridine], for which the SI is listed as more than 10.000.
The same measure, in the same setting: then `Cc1ccccc1Cn1ccc2nc(-c3ccccc3)nc-2c1` [GPJN-20, 5-[(2-Methylphenyl)methyl]-2-phenyl-5H-imidazo[4,5-c]pyridine], with 169; and `C(=Cc1ccccc1)Cn1ccc2nc(-c3ccccc3)nc-2c1` [GPJN-75, 2-Phenyl-5-(3-phenyl-2-propenyl)-5H-imidazo[4,5-c]pyridine], with 1761.

The data set is the same for the next values; noted with them: Table 10; SI: MTC/EC50.
`Clc1cn(Cc2ccc(Br)cc2)cc2nc(-c3ccccc3)nc1-2` [GPJN-103, 5-[(4-Bromophenyl)methyl]-7-chloro-2-phenyl-5H-imidazo[4,5-c]pyridine] displayed an SI of 328.
